Values of other authors, collected in US20040186089A1 (priority 2001, published 2004).

Test system: Bacillus cereus
Conditions: known; broad-spectrum β-lactamase producer; cited from earlier work

Row | Compound | resistance of Bacillus cereus
1 | CC1(C)S[C@@H]2[C@H](NC(=O)[C@H](N)c3ccccc3)C(=O)N2[C@H]1C(=O)O [ampicillin] | resistant
2 | Penicillin | resistant
